Results of unrelated studies side by side (data: NIAID ChemDB).

Shared fields: whole-cell or culture tests; agent: HIV-1; cell line: MT-4; measure: EC50

Blank or dashed fields: not listed here. Rows are shuffled and stem from different studies. ECn: concentration that inhibits the pathogen or its effect by n%.

| compound | strain or isolate | mutations | read by | result |
|---|---|---|---|---|
| CCNc1c(C#N)c(=O)n(-c2ccc([N+](=O)[O-])cc2)c2ccccc12 | IIIB | - | GFP / reporter gene | 32.4 µM |
| Nc1ncnc2c1ncn2[C@H]1C=C[C@@H](OCP(=O)(O)O)O1 | LAI | - | ELISA | 1.4 µM |
| CC(C)NC(=O)c1cc(F)ccc1CNC(=O)c1nc(N2CCCCS2(=O)=O)c2cccnc2c1O | - | - | p24 | <5 µM |
| CSc1nc2ccccc2c(=O)n1/N=C1\C(=O)Nc2ccc(Cl)cc21 | IIIB | - | cytopathic effect / MTT | >40 µM |
| N#Cc1cc2ccc(OC[C@H]3CCCN3)cc2n(-c2ccc([N+](=O)[O-])cc2)c1=O | IIIB | - | GFP / reporter gene | 2.04 µM |
| CC(C)C[C@H](NC(=O)OC(C)(C)C)C(=O)O[C@@H]1Cc2ccccc2[C@@H]1NC(=O)[C@H](Cc1ccccc1)C[C@H](O)CN1CCN(Cc2cccnc2)C[C@H]1C(=O)NC(C)(C)C | IIIB | - | cytopathic effect / MTT | 1.8 µM |
| Cc1nc2ccccc2c(-c2cc(F)c3c(c2C)CCCO3)c1[C@H](OC(C)(C)C)C(=O)O | NL4-3 | A128T | luminescence | 0.038 µM |
| Cc1ccc2nc(-c3c(F)cccc3F)n(Cc3c(F)cccc3F)c2c1 | IIIB | - | RT activity | 7.35 µM |
| CC1=C[C@@H]([C@H]2Oc3cc4c(c5c3[C@H](CC5)[C@@H]2C)CC[C@H]2C(C)(C)O[C@@H]3CC(=O)O[C@@]32C4)OC1=O | IIIB | - | cytopathic effect | ~30 µg/mL |
| Cc1cn([C@H]2C=C[C@@H](OCP(=O)(O)O)O2)c(=O)[nH]c1=O | - | - | - | 1.3 µM |
| C/C(=C(/CCO)SS/C(CCO)=C(\C)N(C=O)Cc1cnc(C)nc1N)N(C=O)Cc1cnc(C)nc1N | LAV-1 | - | - | <50 µM |
| CC1(C)C=Cc2c(c3c(c4ccc(=O)oc24)OC(C)(C)C=C3)O1 | IIIB | - | MTT | >41 µM |
| N#Cc1cc2ccc(OC[C@@H]3CCCN3)cc2n(-c2ccc([N+](=O)[O-])cc2)c1=O | IIIB | - | GFP / reporter gene | 2.82 µM |
| CCc1c(CC2CCCc3ccccc32)n(COCC=C(C)C)c(=O)[nH]c1=O | N119 RT-Y181C NNRTI-resistant | RT-Y181C | cytopathic effect / MTT | >100 µM |
| CC(C)(C)NC(=O)[C@@H]1CN(Cc2cccnc2)CCN1C[C@H](C[C@@H](Cc1ccccc1)C(=O)N[C@H]1c2ccccc2C[C@H]1OC(=O)CCCCOc1ccc(C[C@H](N)C(=O)O)cc1)OC(=O)CCCCOc1ccc(C[C@H](N)C(=O)O)cc1 | IIIB | - | cytopathic effect / MTT | 1.4 µM |
| CNCCCOc1ccc2cc(C#N)c(=O)n(-c3ccc([N+](=O)[O-])cc3)c2c1 | IIIB | - | GFP / reporter gene | 0.23 µM |
| CC(C)(C)NC(=O)[C@@H]1CN(Cc2cccnc2)CCN1C[C@@H](O)C[C@@H](Cc1ccccc1)C(=O)N[C@H]1c2ccccc2C[C@H]1OC(=O)[C@H](Cc1ccccc1)NC(=O)OC(C)(C)C | IIIB | - | cytopathic effect / MTT | 1.83 µM |
| COc1cc(/C=C/c2nc(NC(=S)Nc3cccc(Cl)c3)c3ccccc3n2)cc(OC)c1OC | IIIB | - | MTT | >3.25 µg/mL |
| CSc1nc2ccccc2c(=O)n1/N=C1\C(=O)N(CN2CCOCC2)c2ccc(Cl)cc21 | IIIB | - | cytopathic effect / MTT | >14 µM |
| COc1cc(/C=C/c2nc(NC(=O)Nc3ccccc3C)c3ccccc3n2)cc(OC)c1OC | IIIB | - | MTT | >1.89 µg/mL |
| CN(C)CN1C(=O)/C(=N\n2c(-c3ccncc3)n[nH]c2=S)c2cc(Br)ccc21 | IIIB | - | cytopathic effect / MTT | >11 µM |
| Cc1ccccc1-n1nnnc1SCC(=O)Nc1ccccc1Cl | - | - | p24 | <10 µM |
| CN(C)CN1C(=O)/C(=N\n2c(-c3ccncc3)n[nH]c2=S)c2ccccc21 | IIIB | - | cytopathic effect / MTT | >10 µM |
| CC1(C)CC=C(c2cn(-c3nccc(C(=O)NC4CCC(N5CC6CCC(C5)O6)CC4)n3)c3ccc(F)c([C@H](OC(C)(C)C)C(=O)O)c23)CC1 | NL4-3 | G140S/Q148H/N155H | luminescence | 0.0053 µM |
| Cc1cc2nc(-c3c(F)cccc3F)n(Cc3c(F)cccc3F)c2cc1C | IIIB | - | RT activity | >6.15 µM |
| COc1ccccc1NC(=S)Nc1nc(/C=C/c2cc(OC)c(OC)c(OC)c2)nc2ccccc12 | IIIB | - | MTT | >3.42 µg/mL |
| Cc1c(O)cccc1C(=O)N[C@@H](CSc1ccccc1)[C@@H](CN1C[C@H]2CCCC[C@H]2C[C@H]1C(=O)NC(C)(C)C)OC(=O)NCCCCOc1ccc(C[C@H](N)C(=O)O)cc1 | IIIB | - | cytopathic effect / MTT | >10 µM |
| CC(=O)NCc1cccc(-c2ccc3c(N)c(C#N)c(=O)n(-c4ccc(C)c(C#N)c4)c3c2)c1 | IIIB | - | GFP / reporter gene | 7.05 µM |
| CSc1nc2ccccc2c(=O)n1/N=C1\C(=O)N(CN2CCOCC2)c2ccc(Br)cc21 | IIIB | - | cytopathic effect / MTT | >10 µM |
| CN(C)C(=O)c1nc2c(N)ncnc2n1[C@H]1CC[C@@H](CO)C1 | IIIB | - | cytopathic effect | >10 µM |
| N#Cc1cc2c3c(ccc2n(-c2ccc([N+](=O)[O-])cc2)c1=O)OCO3 | IIIB | - | GFP / reporter gene | 1.68 µM |
| Cc1cc(C)c(-n2nnnc2OCC(=O)Nc2ccccc2[N+](=O)[O-])c(C)c1 | - | - | p24 | <10 µM |
| CSc1nc2ccccc2c(=O)n1/N=C1\C(=O)N(CN2CCCCC2)c2ccc(Br)cc21 | IIIB | - | cytopathic effect / MTT | >10 µM |
| COc1ccc(NC(=S)Nc2nc(/C=C/c3cc(OC)c(OC)c(OC)c3)nc3ccccc23)cc1 | IIIB | - | MTT | >4.43 µg/mL |
| Cc1cc(C)c(-n2nnnc2SCC(=O)Nc2cccc(Br)n2)c(C)c1 | - | - | p24 | <10 µM |
| Cc1nc2c(N)ncnc2n1[C@H]1CC[C@@H](CO)C1 | IIIB | - | cytopathic effect | >10 µM |
| CC(C)(C)NC(=O)[C@@H]1CN(Cc2cccnc2)CCN1C[C@@H](O)C[C@@H](Cc1ccccc1)C(=O)N[C@H]1c2ccccc2C[C@H]1OC(=O)CCCCOc1ccc(C[C@H](N)C(=O)O)cc1 | IIIB | - | cytopathic effect / MTT | 0.047 µM |
| CN(c1nc(C(=O)NCc2ccc(F)cc2C(N)=O)c(O)c2ncccc12)S(C)(=O)=O | - | - | p24 | <5 µM |
| CCOCn1c(CC2CCCc3ccccc32)c(CC)c(=O)[nH]c1=O | IIIB | - | cytopathic effect / MTT | 4 µM |
| Nc1ncnc2c1nc(-c1ccccc1)n2[C@H]1CC[C@@H](CO)C1 | IIIB | - | cytopathic effect | >10 µM |
| CSc1nc2ccccc2c(=O)n1/N=C1\C(=O)N(CN(C)C)c2ccc(Cl)cc21 | IIIB | - | cytopathic effect / MTT | >15 µM |
| COc1ccc(NC(=O)Nc2nc(/C=C/c3cc(OC)c(OC)c(OC)c3)nc3ccccc23)cc1 | IIIB | - | MTT | >1.88 µg/mL |
| Cc1cn([C@H]2C=C[C@@H](CO)O2)c(=O)[nH]c1=O | - | - | - | 1.2 µM |
| CC(C)(C)NC(=O)[C@@H]1CN(Cc2cccnc2)CCN1C[C@H](C[C@@H](Cc1ccccc1)C(=O)N[C@H]1c2ccccc2C[C@H]1O)OC(=O)NCCCCOc1ccc(C[C@H](N)C(=O)O)cc1 | IIIB | - | cytopathic effect / MTT | 12 µM |
| CSc1nc2ccccc2c(=O)n1/N=C1\C(=O)N(CN2CCCCC2)c2ccccc21 | IIIB | - | cytopathic effect / MTT | >9 µM |
| CN(C)c1ccc(-n2nnnc2SCC(=O)Nc2ccccc2[N+](=O)[O-])c2ccccc12 | - | - | p24 | <10 µM |
| COc1ccccc1NC(=O)Nc1nc(/C=C/c2cc(OC)c(OC)c(OC)c2)nc2ccccc12 | IIIB | - | MTT | >2.03 µg/mL |
| C=CCOC[C@H]1O[C@@H](n2cc(C)c(=O)n(C)c2=O)[C@H](O[Si](C)(C)C(C)(C)C)C12OS(=O)(=O)C=C2N | - | - | - | 11.1 ± 10 µM |
| CCCCCCCCCCCCCCCC(=O)OCC(COC(=O)CCCCCCCCCCCCCCC)OC(=O)CCC(=O)O[C@@H]1Cc2ccccc2[C@@H]1NC(=O)[C@H](Cc1ccccc1)C[C@H](O)CN1CCN(Cc2cccnc2)C[C@H]1C(=O)NC(C)(C)C | IIIB | - | cytopathic effect / MTT | 5.3 µM |
| N#Cc1cc2ccc(N[C@@H]3CCNC3)cc2n(-c2ccc([N+](=O)[O-])cc2)c1=O | IIIB | - | GFP / reporter gene | 4.78 µM |
| CN(C)C(=O)c1cc(F)ccc1CNC(=O)c1nc(N2CCCCS2(=O)=O)c2cccnc2c1O | - | - | p24 | <5 µM |
| Cc1cn([C@@H]2O[C@H](COS(=O)(=O)c3ccccc3)C3(OS(=O)(=O)C=C3N)[C@H]2O[Si](C)(C)C(C)(C)C)c(=O)n(C)c1=O | - | - | - | 24 ± 9.7 µM |
| Fc1cccc(F)c1Cn1c(-c2c(F)cccc2F)nc2ccccc21 | IIIB | - | RT activity | 2.01 µM |
| Cc1cn([C@@H]2O[C@H](COC(=O)C(C)C)C3(OS(=O)(=O)C=C3N)[C@H]2O[Si](C)(C)C(C)(C)C)c(=O)n(C)c1=O | - | - | - | >10 µM |
| O=C1/C(=N\n2c(-c3ccncc3)n[nH]c2=S)c2cc(Cl)ccc2N1CN1CCOCC1 | IIIB | - | cytopathic effect / MTT | >14 µM |
| CCOC(=O)c1nnsc1NCc1ccccc1N | IIIB | - | MTT | >290 µM |
| Nc1ncnc2c1ncn2[C@H]1CC[C@@H](CO)C1 | IIIB | - | cytopathic effect | >10 µM |
| O=C1/C(=N\n2c(-c3ccncc3)n[nH]c2=S)c2cc(Br)ccc2N1CN1CCOCC1 | IIIB | - | cytopathic effect / MTT | >11 µM |
| COc1cc(/C=C/c2nc(NC(=S)Nc3cccc([N+](=O)[O-])c3)c3ccccc3n2)cc(OC)c1OC | IIIB | - | MTT | >3.07 µg/mL |
| Cc1cn([C@@H]2O[C@H](COC(=O)c3ccccc3)C3(OS(=O)(=O)C=C3N)[C@H]2O[Si](C)(C)C(C)(C)C)c(=O)n(C)c1=O | - | - | - | >15 µM |

For reference, 6 entries again:

{"compound": "CC1=C[C@@H]([C@H]2Oc3cc4c(c5c3[C@H](CC5)[C@@H]2C)CC[C@H]2C(C)(C)O[C@@H]3CC(=O)O[C@@]32C4)OC1=O", "strain or isolate": "IIIB", "read by": "cytopathic effect", "result": "~30 µg/mL"}
{"compound": "Cc1cn([C@H]2C=C[C@@H](OCP(=O)(O)O)O2)c(=O)[nH]c1=O", "result": "1.3 µM"}
{"compound": "CN(C)c1ccc(-n2nnnc2SCC(=O)Nc2ccccc2[N+](=O)[O-])c2ccccc12", "read by": "p24", "result": "<10 µM"}
{"compound": "CC1(C)CC=C(c2cn(-c3nccc(C(=O)NC4CCC(N5CC6CCC(C5)O6)CC4)n3)c3ccc(F)c([C@H](OC(C)(C)C)C(=O)O)c23)CC1", "strain or isolate": "NL4-3", "mutations": "G140S/Q148H/N155H", "read by": "luminescence", "result": "0.0053 µM"}
{"compound": "Cc1cc2nc(-c3c(F)cccc3F)n(Cc3c(F)cccc3F)c2cc1C", "strain or isolate": "IIIB", "read by": "RT activity", "result": ">6.15 µM"}
{"compound": "Cc1cn([C@@H]2O[C@H](COC(=O)C(C)C)C3(OS(=O)(=O)C=C3N)[C@H]2O[Si](C)(C)C(C)(C)C)c(=O)n(C)c1=O", "result": ">10 µM"}